The record followed here is US12486489B2, “Culture medium for testing drug resistance of H.pylori as well as preparation method and use thereof” (priority 2022, dated 2025).

Test [1] has as its system H. pylori. Description: Verification of resistance breakpoint: growth of laboratory strains on Columbia solid culture medium with added antibiotics, 72 hours. It is filed as cell-based, Helicobacter pylori. The note with it: for experimental resistant strains that grow: levofloxacin 0.5, clarithromycin 0.5, metronidazole 4, amoxicillin 0.5 μg/mL; for growth of bacterial: antibiotic 0.0625 μg/mL. Here is the method: The plates are cooled and inverted for approximately 10 mL/piece, marked properly for the subsequent use.
(2) Preparation of bacterial solution: H. pylori grown in logarithmic phase on a solid plate is taken to prepare a bacterial suspension by using BHI. The concentration OD600 is adjusted to 0.3 (1×10^8 CFU/mL), diluted 10 times for the subsequent use.
(3) Inoculation of bacterial solution: 10 μL of bacterial solution is taken and added to Columbia culture medium and the results are determined after cultivating for 72 hours.
(4) Result determination: the minimum drug concentration for no growth of bacteria on the plate is the minimum inhibitory concentration of the bacteria against the drug.

Test [2] deals with H. pylori. Description: Growth of H. pylori and colour change on characteristic culture medium with added antibiotics. It is filed as cell-based, Helicobacter pylori. The arrangement: key: x: refers to non-growth of H. pylori and no change in the color of the culture medium after 72 hours of culture; *: refers to a color change of the culture medium after 36 hours of culture and a growth of H. pylori after 72 hours of culture. The protocol: (§1) (3) Preparation of bacterial solution: H. pylori grown in logarithmic phase on a solid plate is taken to prepare a bacterial suspension by using BHI, and the concentration OD600 is adjusted to 0.3 (1×10^8 CFU/mL), diluted 10 times for the subsequent use.
(§2) (4) Inoculation of bacterial solution: 10 μL of bacterial solution is taken and added dropwise to the characteristic culture medium and the results are determined after cultivating for 36 hours.

Test [3] relates to H. pylori. Put plainly: Growth of H. pylori on Columbia culture medium with added antibiotics. Format: cell-based, Helicobacter pylori. The arrangement: key: +: refers to a growth of H. pylori; −: refers to non-growth of H. pylori. The protocol: as §1, §2
For test [4], the system named is H. pylori. Put plainly: MIC of laboratory H. pylori strains by micro dilution method. Format: cell-based. The following applies: Helicobacter pylori. The protocol:
(3) Preparation of bacterial solution: H. pylori grown in logarithmic phase on a solid plate is taken, BHI culture medium is used to prepare a bacterial suspension. The concentration of the bacterial solution is adjusted to 1×10^8 CFU/mL (OD600 is 0.3), diluted 10 times, 100 times, and 1000 times to implement a final concentration of […], for the subsequent use.
(4) Inoculation of bacterial solution: 10 μL of the above bacterial solution for the subsequent use is taken and added to wells the 1-10-th and the 12-th well (bacterial working concentration is 1×10^6 CFU/mL), the 11-th well serves as a non-bacterial control and only sterile water is added. The wells are cultivated for 72 hours to determine the results.

The mark [5] stands for this setting: strain 159, levofloxacin 0.5, clarithromycin 0.5, metronidazole 4, amoxicillin 0.0625 μg/mL.
[6] abbreviates: strain 161, levofloxacin 0.5, clarithromycin 0.5, metronidazole 4, amoxicillin 0.0625 μg/mL.
Setting [7] is: strain 162, levofloxacin 0.5, clarithromycin 0.5, metronidazole 4, amoxicillin 0.0625 μg/mL.
Setting [8] is: strain 163, levofloxacin 0.5, clarithromycin 0.5, metronidazole 4, amoxicillin 0.0625 μg/mL.
[9] abbreviates: strain 286, levofloxacin 0.5, clarithromycin 0.5, metronidazole 4, amoxicillin 0.0625 μg/mL.
[10] abbreviates: strain 287, levofloxacin 0.5, clarithromycin 0.5, metronidazole 4, amoxicillin 0.0625 μg/mL.
Where [11] appears, read: strain 289, levofloxacin 0.5, clarithromycin 0.5, metronidazole 4, amoxicillin 0.0625 μg/mL.
Setting [12] is: strain 290, levofloxacin 0.5, clarithromycin 0.5, metronidazole 4, amoxicillin 0.0625 μg/mL.
Setting [13] is: strain 26695, levofloxacin 0.5, clarithromycin 0.5, metronidazole 4, amoxicillin 0.0625 μg/mL.
Where [14] appears, read: strain G27, levofloxacin 0.5, clarithromycin 0.5, metronidazole 4, amoxicillin 0.0625 μg/mL.

Read-outs that look alike come from different tables or passages of the source.

As for `CC1(C)S[C@@H]2[C@H](NC(=O)[C@H](N)c3ccc(O)cc3)C(=O)N2[C@H]1C(=O)O` [Amoxicillin, amoxicillin], the “experimental resistant strains that grow” value in the test with H. pylori [1] came to 90%. For the same compound, the growth of bacterial result with H. pylori [1] (strain 159) was “+”; in the test on H. pylori [1] (strain 161), “+”; in the test on H. pylori [1] (strain 162) it was “−”; with H. pylori [1] (strain 163), “+”; with H. pylori [1] (strain 286), “+”; in the test with H. pylori [1] (strain 287), “+”. The growth of bacterial result in the test on H. pylori [1] (strain 289) is given as “+”; in the test with H. pylori [1] (strain 290) it was “+”; in the test on H. pylori [1] (strain 26695), “−”; in the test on H. pylori [1] (strain G27), “−”. Further, the “growth of H. pylori and color change of the culture medium” value with H. pylori [2] (setting [5]), with H. pylori [2] (setting [6]), in the test on H. pylori [2] (setting [7]), with H. pylori [2] (setting [8]), in the test with H. pylori [2] (setting [9]) and in the test on H. pylori [2] (setting [10]) was “*” in each case. The “growth of H. pylori and color change of the culture medium” value with H. pylori [2] (setting [11]) was “*”; with H. pylori [2] (setting [12]), “*”; with H. pylori [2] (setting [13]), “x”; in the test with H. pylori [2] (setting [14]), “x”. Besides, the “growth of H. pylori” value with H. pylori [3] (setting [5]), with H. pylori [3] (setting [6]), in the test with H. pylori [3] (setting [7]), in the test with H. pylori [3] (setting [8]), in the test on H. pylori [3] (setting [9]) and in the test with H. pylori [3] (setting [10]) was “+” each time. Also, the “growth of H. pylori” value in the test with H. pylori [3] (setting [11]) is given as “+”; in the test on H. pylori [3] (setting [12]), “+”; with H. pylori [3] (setting [13]), “−”; with H. pylori [3] (setting [14]) it was “−”. Also, the MIC in the test with H. pylori [4] (resistant strains 159, 161, 162, 163, 286, 287, 289, and 290, bacterial count 1×10^6 CFU/mL, read-out: MICs) was 0.0625 to 2 µg/mL; with H. pylori [4] (strain 159, bacterial count 10^6 CFU/mL (second line of the strain), read-out: minimum inhibitory concentration (MIC)), 0.0625 µg/mL; in the test with H. pylori [4] (strain 161, bacterial count 10^6 CFU/mL (second line of the strain), read-out: minimum inhibitory concentration (MIC)) it was 0.0625 µg/mL; with H. pylori [4] (strain 162, bacterial count 10^6 CFU/mL (second line of the strain), read-out: minimum inhibitory concentration (MIC)), 0.0625 µg/mL; in the test on H. pylori [4] (strain 287, bacterial count 10^4 CFU/mL, read-out: minimum inhibitory concentration (MIC)), 0.0625 µg/mL; in the test on H. pylori [4] (strain 26695, bacterial count 10^6 CFU/mL (first line of the strain), read-out: minimum inhibitory concentration (MIC)), 0.0625 µg/mL.
Consider `CC[C@H]1OC(=O)[C@H](C)[C@@H](O[C@H]2C[C@@](C)(OC)[C@@H](O)[C@H](C)O2)[C@H](C)[C@@H](O[C@@H]2O[C@H](C)C[C@H](N(C)C)[C@H]2O)[C@](C)(OC)C[C@@H](C)C(=O)[C@H](C)[C@@H](O)[C@]1(C)O` [Clarithromycin, clarithromycin], for which, in the test on H. pylori [1], the “experimental resistant strains that grow” value turned out to be 90%.
